Consider 2 compounds from the supplement of paper PMC5770543.

SMILES strings stand for the structures. ± gives the standard deviation.

The subject of assay [1] is Toxoplasma gondii RH tachyzoites. As to the kind of experiment: % growth inhibition vs DMSO (48 h luciferase); higher = more inhibition. The following applies: 10 µM.
The subject of assay [2] is Plasmodium falciparum 3D7. The assay can be described thus: EC50 growth inhibition (60 h, SYBR Green). The following applies: stage: ring-stage start.
Assay [3] has as its system Plasmodium falciparum 3D7. The assay can be described thus: % inhibition of schizont-to-ring transition vs DMSO; higher = more inhibition. Put shortly:
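Tightly synchronised P. falciparum schizonts (about 40–42 hours post-invasion, 1% parasitemia, 2.5% hematocrit, AlbuMAX-supplemented RPMI) were exposed to compound at 1, 3 or 10 µM, with vehicle and positive controls. Cells were glutaraldehyde-fixed, Triton-permeabilised, stained with Hoechst 33342 and counted by flow cytometry (at least 100,000 events). Schizont-to-ring transition inhibition is new ring formation relative to vehicle controls, averaged over three experiments.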

The target of assay [4] is Toxoplasma gondii RH tachyzoites. As to the kind of experiment: EC50 growth inhibition (48 h luciferase).
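For % growth inhibition vs DMSO (48 h luciferase) in this document: tested in triplicate wells of 96-well plates on confluent HFF monolayers, with 1% DMSO wells as negative control in four replicates.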

Turning to `CCC1(C)CC(CCNCc2ccccc2O)(c2ccc(C)cc2)CCO1` (stereo unspecified), the “% growth inhibition” value in assay [1] amounted to 76.3 ± 2.5%. Further, the EC50 growth inhibition in assay [2] worked out at 357 nM. Also, the “% inhibition of schizont-to-ring transition” value in assay [3] (1 µM) amounted to 40.2%; in assay [3] (3 µM), 65.1%; in assay [3] (10 µM), 71.6%.

`c1ccc2c(NCCCCCCNc3c4c(nc5ccccc35)CCCC4)c3c(nc2c1)CCCC3`: the “% growth inhibition” value in assay [1] turned out to be 99.68 ± 0.17%. Moreover, the EC50 growth inhibition worked out at 2080 nM in assay [4] and 152 nM in assay [2]. Moreover, the “% inhibition of schizont-to-ring transition” value in assay [3] (1 µM) is 45.3%; in assay [3] (3 µM), 73.6%; in assay [3] (10 µM), 81.1%.
